Results of unrelated studies side by side (data: NIAID ChemDB).

All rows: growth or infection tests; agent: Hepatitis C virus; cell line: Huh7; measure: EC50

An empty or dashed field is not shown. Rows are shuffled and stem from different studies. a–b is a range or a potency band. ECn is the concentration giving n% inhibition of infection, replication or growth.

compound,strain,changes,method,result
O=C(Cc1ccc(SC(F)(F)F)cc1)N/N=C/c1ccccc1OS(=O)(=O)c1ccc(C(F)(F)F)cc1,-,-,replicon,5–50 µM
CNC(=O)c1c(-c2ccc(F)cc2)oc2cc(N3CCC(O)C3)c(OC(C)C)cc12,-,-,replicon,<1 µM
O=C(O)c1ccc2c(C3CCCCC3)c3n(c2c1)C(=O)NCc1ccccc1-3,-,-,replicon,>10 µM
CNC(=O)c1c(-c2ccc(F)cc2)oc2cc(N3CCOCC3)c(OCc3c(C)noc3C)cc12,-,-,replicon,<10 µM
O=C(O)c1ccc2c(C3CCCCC3)c3n(c2c1)CCCc1ccccc1-3,-,-,replicon,1–10 µM
CNC(=O)c1c(-c2ccc(F)cc2)oc2cc(NS(C)(=O)=O)c(O)cc12,-,-,replicon,<30 µM
COC(=O)c1ccc2c(C3CCCCC3)c3n(c2c1)CC(C(=O)N1CCN(c2ccncc2)CC1)=Cc1ccccc1-3,-,-,replicon,1–10 µM
COc1c(-c2ccc3cc(NS(C)(=O)=O)ccc3c2)cc(-n2ccc(=O)[nH]c2=O)cc1C(C)(C)C,genotype 1b Con1,C316Y,luciferase,0.926 µM
CNC(=O)c1c(-c2ccc(F)cc2)oc2cc(C(C)O)c(OC(C)C)cc12,-,-,replicon,<1 µM
O=C(N/N=C/c1ccccc1OS(=O)(=O)c1ccc(C(F)(F)F)cc1)C1CCCCC1,-,-,replicon,5–50 µM
CNC(=O)c1c(-c2ccc(F)cc2)oc2cc(-c3c(COC)noc3C3CC3)c(OC)cc12,-,-,replicon,<1 µM
O=C(Nc1ccc(C2SC(=Nc3ccc(N4CCOCC4)cc3)N(Cc3ccccn3)C2=O)cc1)[C@H]1C[C@H](O)CN1C(=O)OCc1ccccc1,-,-,replicon,0.1–1 µM
CC(C)(C)OC(=O)N1CCCCn2c(c(C3CCCCC3)c3ccc(C(=O)O)cc32)-c2cnccc21,-,-,replicon,>10 µM
O=C(Cc1ccccc1)N/N=C/c1ccccc1OS(=O)(=O)c1cc(Cl)cc(Cl)c1,-,-,replicon,5–50 µM
COc1cc2c(C(=O)NC(C)C)c(-c3ccc(F)cc3)oc2cc1-c1c(C)noc1C,-,-,replicon,>30 µM
O=C(Nc1ccc(C2SC(=Nc3cccc(OC(F)(F)F)c3)N(Cc3ccco3)C2=O)cc1)[C@H]1CCCN1C(=O)OCc1ccccc1,-,-,replicon,0.1–1 µM
CNC(=O)c1c(-c2ccc(F)cc2)oc2cc(S(N)(=O)=O)c(OC(C)C)cc12,-,-,replicon,>30 µM
O=C(Nc1ccc(C2SC(=Nc3ccc(N4CCOCC4)cc3)N(Cc3ccccn3)C2=O)cc1)[C@H]1CCCN1C(=S)NCc1ccccc1,-,-,replicon,<0.1 µM
O=C(NS(=O)(=O)C1CC1)c1ccc2c(C3CCCCC3)c3n(c2c1)CC(C(=O)N1CCOCC1)Cc1ccccc1-3,-,-,replicon,0.01–1 µM
CNC(=O)c1c(-c2ccc(F)cc2)oc2cc(N3CCOCC3)c(OCC(C)(C)O)cc12,-,-,replicon,<10 µM
O=C(Cc1ccc(Br)cc1)N/N=C/c1ccccc1OS(=O)(=O)c1ccc(C(F)(F)F)cc1,-,-,replicon,<5 µM
C[C@H](C(=O)N1CCC[C@@H]1C(=O)Nc1ccc(C2SC(=Nc3ccc(N4CCOCC4)cc3)N(Cc3ccccn3)C2=O)cc1)c1ccccc1,-,-,replicon,<0.1 µM
O=C(Cc1cccc(C(F)(F)F)c1)N/N=C/c1ccccc1OS(=O)(=O)c1ccc(C(F)(F)F)cc1,-,-,replicon,<5 µM
COC(=O)/C=C/c1ccc(CN(C)S(=O)(=O)NC(=O)c2ccc3c(C4CCCCC4)c4n(c3c2)CC(=O)Nc2ccccc2-4)cc1,-,-,replicon,0.01–1 µM

The first 2 rows once more:

O=C(Cc1ccc(SC(F)(F)F)cc1)N/N=C/c1ccccc1OS(=O)(=O)c1ccc(C(F)(F)F)cc1 ; method: replicon ; result: 5–50 µM
CNC(=O)c1c(-c2ccc(F)cc2)oc2cc(N3CCC(O)C3)c(OC(C)C)cc12 ; method: replicon ; result: <1 µM